IC50 data for 1 compound are collected here from patent US20110178064A1, “SPIRO CONDENSED […] DERIVATIVES FOR USE AS ANTIBACTERIAL” (A[…]&D, priority 2007, published 2011).

Amino acid sequences for entries named in this document (tags omitted).
UniProt P0AES4, whole entry: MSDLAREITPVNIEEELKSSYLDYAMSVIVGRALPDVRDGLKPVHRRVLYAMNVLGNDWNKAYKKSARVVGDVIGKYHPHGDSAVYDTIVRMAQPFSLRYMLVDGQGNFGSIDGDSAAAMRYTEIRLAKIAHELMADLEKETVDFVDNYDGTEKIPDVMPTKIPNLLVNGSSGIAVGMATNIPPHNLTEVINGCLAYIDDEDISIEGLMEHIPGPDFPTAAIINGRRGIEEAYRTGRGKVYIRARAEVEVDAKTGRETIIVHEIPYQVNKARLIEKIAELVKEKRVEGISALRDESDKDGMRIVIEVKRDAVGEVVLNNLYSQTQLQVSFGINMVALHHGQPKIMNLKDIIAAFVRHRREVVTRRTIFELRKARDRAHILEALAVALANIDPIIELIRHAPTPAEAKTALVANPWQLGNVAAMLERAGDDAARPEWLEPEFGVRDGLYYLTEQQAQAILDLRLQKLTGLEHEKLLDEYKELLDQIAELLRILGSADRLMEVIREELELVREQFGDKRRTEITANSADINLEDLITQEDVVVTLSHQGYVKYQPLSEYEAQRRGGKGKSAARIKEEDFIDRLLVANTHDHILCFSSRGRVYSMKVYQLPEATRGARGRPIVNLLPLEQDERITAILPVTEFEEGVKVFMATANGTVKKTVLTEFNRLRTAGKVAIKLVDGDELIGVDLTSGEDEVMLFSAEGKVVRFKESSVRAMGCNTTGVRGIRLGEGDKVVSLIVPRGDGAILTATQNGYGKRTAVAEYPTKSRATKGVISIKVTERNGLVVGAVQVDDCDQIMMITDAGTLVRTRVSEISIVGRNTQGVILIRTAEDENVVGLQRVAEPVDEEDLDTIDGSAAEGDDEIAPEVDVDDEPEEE

The target in this assay is Escherichia coli DNA gyrase A/B tetramer (Escherichia coli, UniProt P0AES4+P0AES6). Nature of the assay: DNA gyrase supercoiling activity fluorescence polarisation assay. Particulars: E. coli DNA gyrase supercoiling; asterisk: no IC50 obtained at or below the indicated concentration. Type of assay: biochemical. For orientation: Fluorescence polarisation rises when a labelled molecule tumbles more slowly, as on binding a larger partner.

Structures were worked out from names or drawings and are uncertain.

With `Cc1nc(C)c(-c2ccc3c(n2)CC2(C(=O)NC(=O)NC2=O)[C@H]2[C@H](C)O[C@H](C)CN32)s1` (relative stereo), the IC50 is greater than 83 µM.

Broadly, the IC50 is the concentration needed to halve the response being measured.
